# Share of PSTVd loop 6 variants by leaf site

The pool varies loop 6 of the PSTVd intermediate strain in the pattern UNNNCGNNNG; wild type is UGACCGCGAG (upper and lower strand joined, each 5' to 3', the first 5 letters being the upper strand, closing pairs included).

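Three N. benthamiana plants were inoculated with the whole mutant pool. Progeny were sequenced from the inoculated region (day 5), the margin of the inoculated leaf (day 10) and systemic leaves (day 12).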

Numbers give reads per thousand; 0 = not seen among the reads, higher = more abundant. Each value is the mean of three plants. "Pool" is the share in the plasmid pool used as inoculum, on the same scale. The inoculated region was read from the minus strand, the other sites from the plus strand. IR is the inoculated region, LM the leaf margin, Sys the systemic leaves. Sequences that differ at fixed positions probably stem from PCR or sequencing errors, and defective variants can be carried along by functional ones. Wild type was 20.7 per thousand in the pool and the most common sequence in every sample (inoculated region 195, 198, 203; leaf margin 629, 591, 734; systemic leaves 942, 870, 868). With 36,220-57,551 reads a sample, very low values are single reads.

For UACUCGCUGG (pool 0.144) the result was IR 0.0708; LM 0.00773; Sys 0. UAUGCGUAAG (pool 0.144) read IR 0.0957; LM 0; Sys 0. For UCCACGGUCG (pool 0.209) the result was IR 0.107; LM 0.00920; Sys 0. UUAGCGACUG (pool 0.392) gave IR 0.0957; LM 0; Sys 0. For UUAGCGGUUG (pool 0.248) the result was IR 0.0772; LM 0; Sys 0.

UCUCCGUACG (pool 0.157) gave IR 0.0536; LM 0.0155; Sys 0. With UGCACGUAAG (pool 0.105) the assay gave IR 0.113; LM 0.00920; Sys 0. For UUAUCGCAUG (pool 0.157) the result was IR 0.0833; LM 0; Sys 0. With UAAGCGCCGG (pool 0.131) the assay gave IR 0.0773; LM 0; Sys 0. UCUACGGACG (pool 0.209) read IR 0.652; LM 0.0655; Sys 0.

UGUGCGUUAG (pool 0.484) read IR 0.108; LM 0.00920; Sys 0.0137. With UGUGCGUAUG (pool 0.353) the assay gave IR 0.0716; LM 0.120; Sys 0. With UGUGCGCAGG (pool 0.170) the assay gave IR 0.137; LM 0; Sys 0. With UGAACGGAGG (pool 0.209) the assay gave IR 0.137; LM 0.00773; Sys 0. For UAGGCGCACG (pool 0.235) the result was IR 0.0837; LM 0; Sys 0.

For UAUUCGCCAG (pool 0.235) the result was IR 0.0779; LM 0; Sys 0. For UAUACGUGCG (pool 0.327) the result was IR 0.578; LM 0.0712; Sys 0.00673. UCGCCGUGGG (pool 0.131) gave IR 0.101; LM 0; Sys 0. UGUACGAUAG (pool 0.340) gave IR 0.114; LM 0.0232; Sys 0. With UCGACGAUAG (pool 0.288) the assay gave IR 0.167; LM 0.0788; Sys 0.

With UCGACGCGUG (pool 0.131) the assay gave IR 0.126; LM 0.0276; Sys 0. UGAUCGAAGG (pool 0.131) read IR 0.0539; LM 0.0247; Sys 0. UCUGCGGGUG (pool 0.183) read IR 0.0592; LM 0.00773; Sys 0. For UAUGCGUGAG (pool 0.196) the result was IR 0.149; LM 0.0169; Sys 0. For UACGCGCCCG (pool 0.170) the result was IR 0.0534; LM 0.00773; Sys 0.

With UAUGCGGCUG (pool 0.131) the assay gave IR 0.119; LM 0; Sys 0. With UGGCCGACGG (pool 0.235) the assay gave IR 0.126; LM 0.00773; Sys 0. With UGAACGAUGG (pool 0.288) the assay gave IR 0.120; LM 0.0169; Sys 0.

Source: Wu et al. 2024 (doi:10.1371/journal.ppat.1012142), supplementary data.